Anti-infective test results gathered from many reports (values: NIAID ChemDB through PubChem).

Shared fields: whole-cell or culture tests; agent: Mycobacterium tuberculosis

Blank or dashed fields: not listed here. MIC bound: limit read from a one-dose screen. ECn: concentration that inhibits the pathogen or its effect by n%. Lines come from different laboratories, so protocols vary. Percent inhibition refers to the dose given; in toxicity tests it is the harm to the cells. A number after MIC or MFC names an inhibition level or a share of isolates.

smiles | conditions | tested at | method | cells | measure | strain | result
CC(=O)c1c(O)c(C)c(O)c2c1OC1=CC(=O)C(C(C)=O)C(=O)C12C |  |  | BACTEC |  | MIC bound | H37Rv | >12.5 µg/mL
NNC(=O)c1ccncc1 |  |  |  |  | MIC | 90-0145 (drug-susceptible) | 0.04 µg/mL
CN[C@@H]1[C@H](O[C@H]2[C@H](O[C@H]3[C@H](O)[C@@H](O)[C@H](N=C(N)N)[C@@H](O)[C@@H]3N=C(N)N)O[C@@H](C)[C@]2(O)C=O)O[C@@H](CO)[C@H](O)[C@H]1O |  |  |  |  | MIC | Isolate H | >2 µg/mL
CCC1=C(C)C2=NC1=CC1=NC(=C(CC)/C1=C/O)C=C1N=C3C(=C1C)C(=O)C(C(=O)OC)C3=C1NC(=C2)C(C)C1CCC(=O)OC |  |  | BACTEC |  | MIC | H37Rv | ≥12.5 µg/mL
N/C(=N\N=C\c1cccc(Br)c1)c1ccncc1 |  |  |  |  | MIC | 1054 | 32 µg/mL
CCOC(=O)CN1C(C(C)=O)=C(O)c2c(C)cc(C)nc2S1(=O)=O |  | 12.5 µg/mL |  |  | inhibition | H37Rv | 31%
CN[C@H]1Cc2c[nH]c3cccc(c23)[C@]12C=C(C)C(=O)O2 |  |  | BACTEC |  | MIC bound | H37Rv | >12.8 µg/mL
FC(F)(F)C(F)(F)c1nc2c(Cl)cc(Cl)cc2[nH]1 |  |  |  |  | MIC | My 331/88 | 32 µM
O=[N+]([O-])c1cn2c(n1)OC[C@@H](OCc1ccc(Cc3ccc(F)cc3)cc1)C2 |  |  | low oxygen |  | MIC90 |  | 0.85 µM
N#Cc1ccc(/C=N/N=C(\N)c2ccncc2)cc1 |  |  |  |  | MIC | 1054 | >256 µg/mL
Nc1nc(-c2ccccc2)c(N=Nc2ccc([N+](=O)[O-])cc2[N+](=O)[O-])s1 |  |  | BACTEC |  | MIC bound | H37Rv | >6.25 µg/mL
Cc1ccc(C(=O)N=Nc2c(O)[nH]c3ccccc23)cc1 |  |  | resazurin |  | MIC50 | H37Rv | >50 µg/mL
O=[N+]([O-])c1cc(Sc2nc3c(Cl)cc(Cl)cc3[nH]2)cc([N+](=O)[O-])c1 |  |  |  |  | MIC | My 331/88 | 4 µM
O=C(Nc1ccc(OC(F)(F)F)cc1)c1ccc(CO[C@@H]2COc3nc([N+](=O)[O-])cn3C2)cc1 |  |  | low oxygen |  | MIC90 |  | 0.95 µM
CC[C@H]1OC(=O)[C@H](C)[C@@H](O[C@H]2C[C@@](C)(OC)[C@@H](O)[C@H](C)O2)[C@H](C)[C@@H](O[C@@H]2O[C@H](C)C[C@H](N(C)C)[C@H]2O)[C@](C)(OC)C[C@@H](C)C(=O)[C@H](C)[C@@H](O)[C@]1(C)O |  |  |  |  | MIC | H37Rv | 20 µg/mL
CCN(CC)CCOc1ccc(C=Nc2ccc3c4ccccc4n(CC)c3c2)cc1 |  |  | resazurin |  | MIC bound | H37Rv | >6.25 µg/mL
Cc1ccc(S(=O)(=O)OCCn2sc3nc(C)cc(C)c3c2=O)cc1 |  | 12.5 µg/mL |  |  | inhibition | H37Rv | 0%
Cn1c(O)c(N=NC(=O)c2ccc(O)cc2O)c2ccccc21 |  |  | resazurin |  | MIC50 | H37Ra | >50 µg/mL
COc1c2occc2c(CN)c2ccc(=O)oc12 |  |  | BACTEC |  | MIC bound | H37Rv | >12.5 µg/mL
O=[N+]([O-])c1cn2c(n1)OC[C@@H](OCc1cccc(C#Cc3ccc(C(F)(F)F)cc3)c1)C2 |  |  | low oxygen |  | MIC90 |  | 2 µM
CC(=O)O[C@H]1C[C@@]2(C)[C@@H](C[C@@H](O)[C@H]3[C@@]4(C)CC[C@@H](O)[C@@H](C)[C@@H]4CC[C@@]32C)/C1=C(\CCC=C(C)C)C(=O)O |  |  |  |  | Median MIC | H37Rv | 8 µg/mL
CO[C@H]1/C=C/O[C@@]2(C)Oc3c(C)c(O)c4c(O)c(c5c(c4c3C2=O)NC2(CCN(CC(C)C)CC2)N=5)=NC(=O)/C(C)=C\C=C\[C@H](C)[C@H](O)[C@@H](C)[C@@H](O)[C@@H](C)[C@H](OC(C)=O)[C@@H]1C |  |  |  |  | MIC | H37Rv | 0.006 µg/mL
O=[N+]([O-])c1cn2c(n1)OC[C@@H](OCc1ccc(S(=O)(=O)NCc3ccc(OC(F)(F)F)cc3)cc1)C2 |  |  | low oxygen |  | MIC90 |  | 9.5 µM
Nc1ccc2nc3cc(Nc4ccccc4)c(=Nc4ccccc4)cc-3n(-c3ccccc3)c2c1 |  |  | BACTEC |  | MIC bound | H37Rv | ≤12.5 µg/mL
N/C(=N\N=C\c1ccccc1Cl)c1ccncc1 |  |  |  |  | MIC | 1481 | 16 µg/mL
Cc1cc(-c2cc3c(cc2F)c(=O)c(C(=O)O)cn3C2CC2)cc(C)n1 |  |  |  |  | MIC | 3105-5 | 1 µg/mL
Cc1onc(-c2ccccc2Cl)c1C(=O)N[C@@H]1C(=O)N2[C@@H]1SC(C)(C)[C@@H]2C(=O)O |  |  |  |  | Mean MIC | H37Ra | 112 µg/mL
N[C@@H]1CONC1=O |  |  |  |  | MIC | 90-0233 (INH SM-RS) | 75 µg/mL
CCOC(=O)CC(=O)NCC(=O)N1CCN(c2ccc(N3C[C@H](Cn4ccnn4)OC3=O)cc2F)CC1 |  |  | visual reading |  | MIC | H37Rv | ≤0.091 µM
O=[N+]([O-])c1cn2c(n1)OC[C@@H](OCc1ccnc(N3CCC(Oc4ccc(C(F)(F)F)nc4)CC3)c1)C2 |  |  | low oxygen |  | MIC90 |  | 8.4 µM
CCCCCC1(C)Cn2cc([N+](=O)[O-])nc2O1 |  |  |  |  | MIC | H37Rv-T3-Fgd1 (PA-824-resistant) | 0.2 µM
Cc1coc(NS(=O)(=O)c2ccc(N=Nc3cc(N=Nc4ccccc4)c(N)nc3N)cc2)c1C |  |  | BACTEC |  | MIC | H37Rv | ≥12.5 µg/mL
O=[N+]([O-])c1cn2c(n1)OC[C@@H](OCc1ccc(Oc3ccc(C(F)(F)F)nc3)cn1)C2 |  |  | low oxygen |  | MIC90 |  | 28 µM
O=c1[nH]c2c([N+](=O)[O-])cccc2c(O)c1N=Nc1cccc(Cl)c1 |  |  | resazurin |  | MIC | H37Rv | <6.25 µg/mL
CC(C)=CCC1C(=O)C(CC=C(C)C)(CC=C(C)C)C(O)C(C(=O)C(C)C)C1O |  |  |  |  | MIC | Isolate I | 20.3 µg/mL
Cc1c(Cl)cccc1N=Nc1c(O)c2cccc([N+](=O)[O-])c2[nH]c1=O |  |  | resazurin |  | MIC | H37Rv | <6.25 µg/mL
O=[N+]([O-])c1cn2c(n1)OC[C@@H](OCc1ccc(OCc3ccccc3)cc1)C2 |  |  |  |  | MIC | H37Rv-T3 (PA-824-resistant) | >100 µM
O=c1[nH]c2c(Cl)ccc(Cl)c2c(O)c1N=Nc1cccc(Cl)c1 |  |  | resazurin |  | MIC | H37Rv | >6.25 µg/mL
O=C(N=Nc1c(O)[nH]c2ccccc12)c1cccnc1 |  |  | resazurin |  | MIC50 | H37Rv | >50 µg/mL
O=C(O)CCCCCCCC(O)C(O)CCCCCCO |  | 12.5 µg/mL | BACTEC |  | inhibition | H37Rv | 8%
N/C(=N\N=C\c1cccc(F)c1)c1ccncc1 |  |  |  |  | MIC | 1481 | 64 µg/mL
COc1cc(O)c2c(O)c3c(=O)cc(C)oc3cc2c1 |  |  |  |  | MIC | TAC-R | >12.5 µg/mL
NC1CCN(c2c(F)cc3c(=O)c(C(=O)O)cn(C4CC4)c3c2Cl)C1 | inside macrophages | 0.1 µg/mL |  | Macrophages | inhibition | H37Rv | 60%
O=c1[nH]c2ccc(Cl)cc2c(O)c1N=Nc1ccccc1[N+](=O)[O-] |  |  | resazurin |  | MIC | H37Rv | <6.25 µg/mL
CC(C)N=c1cc2n(-c3ccc(Cl)cc3)c3ccccc3nc-2cc1Nc1ccc(Cl)cc1 |  |  |  |  | MIC | 90-0216 (drug-susceptible) | 0.4 µg/mL
Cc1ccc(/C=N/N=C(\N)c2ccncc2)c(C)c1 |  |  |  |  | MIC | H37Rv | 8 µg/mL
Cn1cnc([N+](=O)[O-])c1Sc1nc2cc(Cl)c(F)cc2[nH]1 |  | 6.25 µg/mL | BACTEC |  | inhibition | H37Rv | -1%
COc1cccc(C=NN2C(=O)c3ccccc3C2=O)c1O |  |  | resazurin |  | MIC50 | H37Ra | >50 µg/mL
COC(=O)C1=NC(=S)N=C(C(=O)OC)C1(C)C(=O)c1ccc(Cl)cc1 |  |  | resazurin |  | MIC bound | H37Rv | >6.25 µg/mL
Cn1cc(C(=O)N=Nc2c(O)n(C)c3ccccc23)c2ccccc21 |  |  | resazurin |  | MIC50 | H37Rv | 25 µg/mL
Cc1cc(C)c2c(n1)S(=O)(=O)N/C(=C(/O)c1ccccc1)C2=O |  |  |  |  | EC50 | H37Rv | >12.5 µg/mL
NCC(=O)NC(CO)C(=O)O |  |  | BACTEC |  | MIC | H37Rv | ≥12.8 µg/mL
Cc1cccc(N=Nc2c(O)c3cccc([N+](=O)[O-])c3[nH]c2=O)c1C |  | 6.25 µg/mL | resazurin |  | inhibition | H37Rv | 48%
O=[N+]([O-])c1cc(Sc2nc3ccc(Br)cc3[nH]2)cc([N+](=O)[O-])c1 |  |  |  |  | MIC | My 331/88 | 4 µM
CC1COc2c(N3CCN(C)CC3)c(F)cc3c(=O)c(C(=O)O)cn1c23 |  |  |  |  | MIC | 90-0241 (drug-susceptible) | 0.75 µg/mL
O=[N+]([O-])c1cn2c(n1)OC[C@@H](OCc1ccc(C#Cc3ccc(C(F)(F)F)cn3)cn1)C2 |  |  | resazurin |  | MIC90 |  | 0.04 µM
COC(=O)C1Cc2c([nH]c3ccccc23)C2CCC(=O)N12 |  | 6.25 µg/mL | resazurin |  | inhibition | H37Rv | 3%
CCc1cc(C(N)=S)ccn1 |  |  |  |  | MIC | 92-0492 MDR (INH RIF-resistant) | 0.25 µg/mL
CCCCN(CCCC)CCNc1ccc(NS(=O)(=O)c2ccccc2)c2sc3ccccc3c(=O)c12 |  |  | BACTEC |  | MIC bound | H37Rv | ≤12.5 µg/mL
COc1ccc(OC)c(/C=N/N=C(\N)c2ccncc2)c1 |  |  |  |  | MIC | H37Rv | 256 µg/mL
O=C1c2cscc2C(=O)c2cscc21 |  | 6.25 µg/mL | resazurin |  | inhibition | H37Rv | 100%
O=C(NCC(=O)N1CCN(c2ccc(N3C[C@H](Cn4ccnn4)OC3=O)cc2F)CC1)C1=CC=C([N+](=O)[O-])C1 |  |  | visual reading |  | MIC | H37Rv | 0.92 µM
O=C(N=Nc1c(O)[nH]c2ccccc12)c1ccco1 |  |  | resazurin |  | MIC50 | H37Ra | >50 µg/mL
COc1c(N2CC[C@@H](C(C)(C)N)C2)c(F)cc2c(=O)c3c(=O)[nH]sc3n(C3CC3)c12 |  |  |  |  | MIC | Pan-susceptible clinical isolate 3 | 0.06 µg/mL
C#CCN1C(=O)c2c(C)cc(C)nc2S1(=O)=O |  | 12.5 µg/mL |  |  | inhibition | H37Rv | 0%
O=C(N=Nc1c(O)[nH]c2ccc(Br)cc12)c1cccs1 |  |  | resazurin |  | MIC50 | H37Ra | >50 µg/mL
COc1cc(/C=N/N=C(\N)c2ccncc2)cc(OC)c1 |  |  |  |  | MIC | 1342 | 256 µg/mL
FC(F)(F)C(F)(F)C(F)(F)c1nc2c(Br)cc(Br)cc2[nH]1 |  |  |  |  | MIC | My 331/88 | 16 µM
C[C@H](N)C(=O)N[C@@H]1[C@H]2C(=C(O)C[C@@H](O)[C@@H]2O)C(=O)O[C@]1(C)C(Cl)Cl |  |  |  |  | MIC | TAC-R | 0.8 µg/mL
O=[N+]([O-])c1ccc(Sc2nc3c(Br)cc(Br)cc3[nH]2)c([N+](=O)[O-])c1 |  |  |  |  | MIC | My 331/88 | 32 µM
O=c1[nH]c2c([N+](=O)[O-])cccc2c(O)c1N=Nc1ccc(Cl)c(Cl)c1 |  |  | resazurin |  | MIC | H37Rv | <6.25 µg/mL
C=CCN1C(=O)c2c(C)cc(C)nc2S1(=O)=O |  |  |  |  | EC50 | H37Rv | >12.5 µg/mL
CC(=O)Oc1ccc2ccc(=O)oc2c1OC(C)=O |  |  | BACTEC |  | MIC bound | H37Rv | >12.5 µg/mL
FC(F)(F)C(F)(F)c1nc2c(Br)c(Br)c(Br)c(Br)c2[nH]1 |  |  |  |  | MIC | My 331/88 | 8 µM
O=[N+]([O-])c1cn2c(n1)OC[C@@H](OCc1ccc(C#Cc3ccc(C(F)(F)F)nc3)nc1)C2 |  |  | low oxygen |  | MIC90 |  | 4.7 µM
O=[N+]([O-])c1ccc(Sc2nc3c(Br)cc(Br)cc3[nH]2)cc1 |  |  |  |  | MIC | My 331/88 | 4 µM
Cc1c(C(=O)C/C(=N/O)C(=O)Nc2cc(Cl)c(Cl)cc2Cl)[n+](=O)c2ccccc2n1[O-] |  |  | resazurin |  | MIC bound | H37Rv | >6.25 µg/mL
Cc1cn(C[C@H]2CN(c3ccc(N4CCN(C(=O)CNC(=O)C(Cl)Cl)CC4)c(F)c3)C(=O)O2)nn1 |  |  | visual reading |  | MIC | H37Rv | ≤0.015 µM
N#Cc1ncc(C[P+](c2ccccc2)(c2ccccc2)c2ccccc2)nc1N.[Cl-] |  |  | BACTEC |  | MIC | H37Rv | ≥12.5 µg/mL
Nc1ccc(C(=O)O)c(O)c1 |  |  |  |  | Median MIC | H37Rv | 1.25 µg/mL

For reference, 5 entries again:

smiles,conditions,tested at,method,cells,measure,strain,result
O=[N+]([O-])c1cn2c(n1)OC[C@@H](OCc1ccc(S(=O)(=O)NCc3ccc(OC(F)(F)F)cc3)cc1)C2,,,low oxygen,,MIC90,,9.5 µM
NC1CCN(c2c(F)cc3c(=O)c(C(=O)O)cn(C4CC4)c3c2Cl)C1,inside macrophages,0.1 µg/mL,,Macrophages,inhibition,H37Rv,60%
O=C(Nc1ccc(OC(F)(F)F)cc1)c1ccc(CO[C@@H]2COc3nc([N+](=O)[O-])cn3C2)cc1,,,low oxygen,,MIC90,,0.95 µM
Cc1cc(C)c2c(n1)S(=O)(=O)N/C(=C(/O)c1ccccc1)C2=O,,,,,EC50,H37Rv,>12.5 µg/mL
N/C(=N\N=C\c1ccccc1Cl)c1ccncc1,,,,,MIC,1481,16 µg/mL